Source: PubChem BioAssay AID1224833 (University of Georgia, 2016)
The whole screen tested about 12,000 reagents; below is a random part of them. About 5,600 of all reagents (46%) count as active. 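Active calls cover z-scores past 1 in both directions, so they include lowered as well as raised rotavirus replication.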 Unmarked entries are inactive.

Aim: 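Host factors restraining rotavirus as candidate antiviral genes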 (primary screen)
Cells: monkey MA104 kidney cells
Reagents: siRNA pool against human genes, 50 nM
Time to read-out: 48 h knock-down before infection; read 24 h after infection
Treatment: infection with rotavirus strain RV3 two days after transfection; infectious dose for this stage not given
Detection: 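Rotavirus antigen per well by fluorescent immunoassay, normalised to non-targeting control wells on each plate and given as a standard z-score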
Scale: z-score vs non-targeting control: higher = more rotavirus replication than with non-targeting control
Hit rule: In these data the active calls have z-score vs non-targeting control at about -1 or lower, or at about 1 or higher
Calls: active = z-score beyond 1 either way; inactive = z-score within 1 of zero

The opening 2 records as a preview:
z-score vs non-targeting control	target gene
1.69 (active)	MRGPRX2 (GeneID 117194)
-0.217	TBC1D13 (GeneID 54662)

The list itself, repeating the preview:
z-score vs non-targeting control	target gene
1.69 (active)	MRGPRX2 (GeneID 117194)
-0.217	TBC1D13 (GeneID 54662)
-0.711	IL6 (GeneID 3569)
0.529	DNAJA2 (GeneID 10294)
-0.601	SF3A2 (GeneID 8175)
-1.15 (active)	ARL17A (GeneID 51326)
1.27 (active)	ITGB6 (GeneID 3694)
-0.632	PRODH2 (GeneID 58510)
-1.05 (active)	AIG1 (GeneID 51390)
-2.39 (active)	ALG10 (GeneID 84920)
-1.16 (active)	ZNF80 (GeneID 7634)
-0.0093	SEC31A (GeneID 22872)
1.31 (active)	TMEM68 (GeneID 137695)
-0.394	AARS2 (GeneID 57505)
1.79 (active)	LAMB3 (GeneID 3914)
-0.44	WDR18 (GeneID 57418)
-0.832	ADA2 (GeneID 51816)
0.0944	CEP170 (GeneID 9859)
0.23	PARL (GeneID 55486)
-0.03	HIGD1B (GeneID 51751)
0.554	KPTN (GeneID 11133)
1.12 (active)	KIRREL3 (GeneID 84623)
1.84 (active)	PCP4 (GeneID 5121)
1.44 (active)	ACAD9 (GeneID 28976)
3.29 (active)	FOXJ1 (GeneID 2302)
0.283	AKR1C3 (GeneID 8644)
-0.964	BPI (GeneID 671)
-0.248	IMPG2 (GeneID 50939)
-1.08 (active)	ZNHIT1 (GeneID 10467)
-0.871	GLCE (GeneID 26035)
0.202	DEDD2 (GeneID 162989)
-0.183	PCDHB4 (GeneID 56131)
1.16 (active)	SH2D3C (GeneID 10044)
-0.718	PRXL2A (GeneID 84293)
-1.2 (active)	TMSB4X (GeneID 7114)
1.69 (active)	ZNF761 (GeneID 388561)
-1.28 (active)	STAG1 (GeneID 10274)
0.189	PSMD4 (GeneID 5710)
-1.87 (active)	OBP2B (GeneID 29989)
-1.74 (active)	GABARAP (GeneID 11337)
-1.31 (active)	CSRP1 (GeneID 1465)
0.0188	NPDC1 (GeneID 56654)
-0.397	DLK2 (GeneID 65989)
-5.68 (active)	UBL3 (GeneID 5412)
-0.575	SKA3 (GeneID 221150)
-0.776	PMP22 (GeneID 5376)
-0.851	PNMA6A (GeneID 84968)
-2.99 (active)	FAM204A (GeneID 63877)
0.585	PSMD12 (GeneID 5718)
-1.89 (active)	AGAP6 (GeneID 414189)
-1.43 (active)	ZNF219 (GeneID 51222)
0.591	MBOAT7 (GeneID 79143)
-1.58 (active)	RPIA (GeneID 22934)
0.653	B3GAT1 (GeneID 27087)
0.782	OSMR (GeneID 9180)
0.245	BCAR1 (GeneID 9564)
-1.34 (active)	DEFB130A (GeneID 245940)
-1.75 (active)	HSD17B7 (GeneID 51478)
1.14 (active)	CMTM8 (GeneID 152189)
0.205	ZNF543 (GeneID 125919)
2.98 (active)	CRISP3 (GeneID 10321)
-1.66 (active)	MED12 (GeneID 9968)
-2.41 (active)	OR6B2 (GeneID 389090)
1.83 (active)	FGF4 (GeneID 2249)
-1.74 (active)	NFYA (GeneID 4800)
-1.43 (active)	ACAT2 (GeneID 39)
-0.175	TRAPPC10 (GeneID 7109)
-1.47 (active)	BMP3 (GeneID 651)
-1.28 (active)	OR14I1 (GeneID 401994)
-0.986	DDX51 (GeneID 317781)
-0.195	CLDN23 (GeneID 137075)
-0.176	ZNF304 (GeneID 57343)
-1.42 (active)	NELFB (GeneID 25920)
0.572	STRN4 (GeneID 29888)
0.624	TAF13 (GeneID 6884)
-0.676	IRX2 (GeneID 153572)
-0.907	PEX5L (GeneID 51555)
0.52	SCGB1D2 (GeneID 10647)
-2.08 (active)	LRRC37A (GeneID 9884)
0.65	ICOSLG (GeneID 23308)
0.378	AK4 (GeneID 205)
-1.31 (active)	KLHL12 (GeneID 59349)
-1.69 (active)	LGALS1 (GeneID 3956)
0.414	RRP15 (GeneID 51018)
-2.33 (active)	TUBE1 (GeneID 51175)
-0.72	FADS2 (GeneID 9415)
-2.61 (active)	BAG3 (GeneID 9531)
1.58 (active)	SOHLH2 (GeneID 54937)
-0.636	DNAJC2 (GeneID 27000)
-0.366	CERS2 (GeneID 29956)
-1.41 (active)	EPS15 (GeneID 2060)
-0.366	ZUP1 (GeneID 221302)
-1.58 (active)	MGAM (GeneID 8972)
0.928	EDN3 (GeneID 1908)
-0.878	OR6A2 (GeneID 8590)
-2.06 (active)	IRX2-DT (GeneID 153571)
-0.151	GINS4 (GeneID 84296)
0.0045	GP2 (GeneID 2813)
-0.656	PNISR (GeneID 25957)
0.427	CDC123 (GeneID 8872)
-0.948	COL4A5 (GeneID 1287)
-0.582	ACTL7A (GeneID 10881)
-1.68 (active)	DEFB107B (GeneID 503614)
-1.2 (active)	TXNDC12 (GeneID 51060)
-0.525	MTPAP (GeneID 55149)
-1.18 (active)	SPON2 (GeneID 10417)
0.235	R3HDM1 (GeneID 23518)
-0.0014	ZNF410 (GeneID 57862)
0.105	SLC9A4 (GeneID 389015)
-0.507	PXDC1 (GeneID 221749)
